Reference: patent publication US12012411B2, “Viral replication inhibitors” (Katholieke Universiteit Leuven, priority 2011, dated 2024)

Test system: DENV-2 NGC
Experiment: Antiviral activity against DENV-2 NGC in Vero-B cells (viral RNA load by RT-qPCR)
Format: cell-based, Dengue virus
Conditions: DENV-2 in Vero-B cells (Table 3); ratio CC50 / EC50

## COc1cccc(NC(C(=O)c2c[nH]c3ccccc23)c2cc3ccccn3n2)c1 (single isomer, unassigned) [CPD-324]
  SI: 3306

## COc1cc(NC(C(=O)c2c[nH]c3ccc(CCCO)cc23)c2ccccc2)cc(OC)c1 (stereo not shown) [CPD-353]
  SI: 582

## O=C(c1c[nH]c2ccccc12)C(Nc1cccnc1)c1ccccc1 (stereo not shown) [CPD-016]
  SI: 11

## COc1cc(NC(C(=O)c2c[nH]c3nc(C)ccc23)c2ccccc2)cc(OC)c1 (stereo not shown) [CPD-232]
  SI: >1206

## COc1cccc(NC(C(=O)c2c[nH]c3cc(Cl)ccc23)c2cc(C)on2)c1 (stereo not shown) [CPD-116]
  SI: 88

## COc1cc(C)nc(NC(C(=O)c2c[nH]c3ccccc23)c2ccccc2)n1 (stereo not shown) [CPD-062]
  SI: >230

## COc1ccnc(NC(C(=O)c2c[nH]c3ccccc23)c2ccccc2)n1 (stereo not shown) [CPD-089]
  SI: >208

## COc1cccc(NC(C(=O)c2nn(CCO)c3ccccc23)c2ccccc2)c1 (stereo not shown) [CPD-303]
  SI: 135

## COc1cc(NC(C(=O)c2c[nH]c3ccc(F)cc23)c2ccc(OC)nc2)cc(OC)c1 (stereo not shown) [CPD-206]
  SI: 625

## COc1cccc(NC(C(=O)c2c[nH]c3ccccc23)c2ccsc2)c1 (stereo not shown) [CPD-027]
  SI: 111

## COc1cccc(NC(C(=O)c2c[nH]c3ccccc23)c2ccccc2C)c1 (stereo not shown) [CPD-348]
  SI: 151

## O=C(c1c[nH]c2ccccc12)C(Nc1cccc(N2CCCC2=O)c1)c1ccccc1 (stereo not shown) [CPD-181]
  SI: >28

## COc1cccc(NC(C(=O)c2c[nH]c3ccccc23)c2ncc[nH]2)c1 (stereo not shown) [CPD-028]
  SI: >1

## COc1cccc(NC(C(=O)c2c[nH]c3ccccc23)c2ccco2)c1 (stereo not shown) [CPD-023]
  SI: 53

## COc1cccc(NC(C(=O)c2cnc3ccccn23)c2ccccc2)c1 (stereo not shown) [CPD-196]
  SI: >2

## COc1cccc(NC(C(=O)c2c[nH]c3ccccc23)c2cc3n(n2)CCOC3)c1 (stereo not shown) [CPD-311]
  SI: 30

## COc1cccc(NC(C(=O)c2nn(C)c3c2CNCC3)c2ccccc2)c1.Cl (stereo not shown) [CPD-221]
  SI: 3

## COc1cccc(NC(C(=O)c2c[nH]c3ccccc23)c2cccs2)c1 (stereo not shown) [CPD-024]
  SI: 27

## O=C(c1c[nH]c2ccccc12)C(Nc1cccc(C(F)(F)F)c1)c1ccccc1 (stereo not shown) [CPD-009]
  SI: 7

## COc1cccc(NC(C(=O)c2n[nH]c3ccccc23)c2ccccc2)c1 (stereo not shown) [CPD-198]
  SI: 119

## COc1cc(NC(C(=O)c2cn(C)c3c(CCO)cccc23)c2ccccc2)cc(OC)c1 (stereo not shown) [CPD-358]
  SI: 345

## COc1cccc(NC(C(=O)c2c[nH]c3cc(C(=O)O)ccc23)c2ccccc2)c1 (stereo not shown) [CPD-135]
  SI: >3

## COc1cccc(N2C(=O)CN(C)n3cc(c4ccccc43)C(=O)C2c2ccccc2)c1 (stereo not shown) [CPD-115]
  SI: 5

## O=C(c1c[nH]c2ccccc12)C(NCC1COc2ccccc2O1)c1ccccc1 (stereo not shown) [CPD-190]
  SI: 7

## CCOc1cncc(NC(C(=O)c2c[nH]c3ccccc23)c2ccccc2)c1 (stereo not shown) [CPD-246]
  SI: 51

## COc1cncc(NC(C(=O)c2nn(C)c3ccccc23)c2ccccc2)c1 (stereo not shown) [CPD-259]
  SI: 26

## COc1cccc(NC(C(=O)c2c[nH]c3ccccc23)c2ccc(C#N)cc2)c1 (stereo not shown) [CPD-036]
  SI: 333

## COc1cccc(NC(C(=O)c2c[nH]c3ccccc23)c2cnc(OC)cn2)c1 (stereo not shown) [CPD-249]
  SI: 553

## COc1cc(NC(C(=O)c2nn(C)c3ccccc23)c2ccccc2)cc(OC)c1 (stereo not shown) [CPD-265]
  SI: >5616

## COc1cc(NC(C(=O)c2c[nH]c3ccccc23)c2ccccc2)cc(OCCN(C)C)c1 (stereo not shown) [CPD-243]
  SI: 8

## COc1cc(NC(C(=O)c2c[nH]c3c(CO)cccc23)c2ccccc2)cc(OC)c1 (stereo not shown) [CPD-362]
  SI: 470

## COc1cccc(NC(C(=O)c2c[nH]c3ccccc23)c2cc(C)on2)c1 (stereo not shown) [CPD-025]
  SI: 69

## COc1cccc(NC(C(=O)c2c[nH]c3ncc(F)cc23)c2ccccc2)c1 (stereo not shown) [CPD-227]
  SI: >454

## COc1cc(NC(C(=O)c2c[nH]c3ccccc23)c2cccnc2)ccn1 (stereo not shown) [CPD-074]
  SI: 95

## COc1cncc(NC(C(=O)c2c[nH]c3ccccc23)c2cc3ccccn3n2)n1 (stereo not shown) [CPD-290]
  SI: >142

## O=C(c1c[nH]c2ccccc12)C(Nc1ccc(F)c(F)c1)c1ccccc1 (stereo not shown) [CPD-007]
  SI: 2

## COc1cccc(NC(C(=O)c2c[nH]c3ccccc23)c2ccccn2)c1 (stereo not shown) [CPD-301]
  SI: 1097

## COc1cccc(NC(C(=O)c2c[nH]c3ccccc23)c2cccnc2OC)c1 (stereo not shown) [CPD-215]
  SI: 90

## COc1cc(NC(C(=O)c2c[nH]c3ccccc23)c2ccc(F)cc2)cc(OC)c1 (stereo not shown) [CPD-235]
  SI: 3701

## COc1cc(CO)cc(NC(C(=O)c2cn(C)c3ccccc23)c2ccccc2)c1 (stereo not shown) [CPD-307]
  SI: >702

## COc1cccc(NC(C(=O)c2c[nH]c3ccccc23)c2nccn2C)c1 (stereo not shown) [CPD-026]
  SI: >8

## COc1cncc(NC(C(=O)c2c[nH]c3ccc(F)cc23)c2ccc(OC)nc2)c1 (single isomer, unassigned) [CPD-323]
  SI: 166

## COc1cc(NC(C(=O)c2c[nH]c3cc(Cl)ccc23)c2cn3ccccc3n2)ccn1 (stereo not shown) [CPD-069]
  SI: 33

## COc1cccc(NC(C(=O)c2c[nH]c3cc(Cl)ccc23)c2ccccc2)c1 (stereo not shown) [CPD-118]
  SI: 943

## COc1cccc(NC(C(=O)N2CCc3ccccc32)c2ccccc2)c1 (stereo not shown) [CPD-056]
  SI: >312

## COc1cc(NC(C(=O)c2cn(C)c3ccccc23)c2ccccc2)ccn1 (stereo not shown) [CPD-100]
  SI: 3

## COc1cccc(NC(C(=O)c2nn(C)c3ccc(C#N)cc23)c2ccccc2)c1 (stereo not shown) [CPD-275]
  SI: >13

## COc1cc(CO)cc(NC(C(=O)c2c[nH]c3ccccc23)c2cnc(OC)cn2)c1 (stereo not shown) [CPD-288]
  SI: 620

## COc1cccc(NC(C(=O)c2c[nH]c3ccccc23)c2ccc(F)nc2)c1 (stereo not shown) [CPD-214]
  SI: 469

## COc1cc(NC(C(=O)c2c[nH]c3ccccc23)c2cccnc2)cc(OCCO)c1 (stereo not shown) [CPD-343]
  SI: >637

## COc1cccc(NC(C(=O)c2c[nH]c3ccccc23)c2ccc(N(C)C)nc2)c1 (stereo not shown) [CPD-239]
  SI: >6

## COc1cccc(NC(C(=O)c2cn(CCO)c3ccccc23)c2ccccc2)c1 (stereo not shown) [CPD-104]
  SI: 186

## COc1cccc(NC(C(=O)c2c[nH]c3cc(N4CCOCC4)ccc23)c2ccccc2)c1 (stereo not shown) [CPD-237]
  SI: >84

## COc1cccc(NC(C(=O)c2c[nH]c3ccccc23)c2cc3ccccn3n2)c1 (stereo not shown) [CPD-083]
  SI: 941

## COc1cc(NC(C(=O)c2cn(CCCO)c3ccc(F)cc23)c2ccccc2)cc(OC)c1 (stereo not shown) [CPD-156]
  SI: 665

## COc1cccc(NC(C(=O)c2cn(C)c3ccccc23)c2ccccc2)c1 (stereo not shown) [CPD-049]
  SI: >1642

## CCOc1cc(NC(C(=O)c2c[nH]c3ccccc23)c2ccccc2)cc(OC)c1 (stereo not shown) [CPD-254]
  SI: 743

## COc1cccc(NC(C(=O)c2c[nH]c3c(C)cccc23)c2cc3ccccn3n2)c1 (stereo not shown) [CPD-329]
  SI: 2980

## COc1cc(NC(C(=O)c2c[nH]c3c(CCO)cccc23)c2ccccc2)cc(OC)c1 (stereo not shown) [CPD-339]
  SI: 205

## COc1cccc(NC(C(=O)c2c[nH]c3ccccc23)c2cnn(C)c2)c1 (stereo not shown) [CPD-042]
  SI: >11

## COc1cccc(NC(C(=O)c2nn(C)c3ccc(F)cc23)c2ccccc2)c1 (stereo not shown) [CPD-270]
  SI: >1001

## COc1cc(NC(C(=O)c2c[nH]c3cc(Cl)ccc23)c2ccccc2)ccn1 (stereo not shown) [CPD-073]
  SI: 32

## COC(=O)c1ccc2c(C(=O)C(Nc3cccc(OC)c3)c3ccccc3)c[nH]c2c1 (stereo not shown) [CPD-085]
  SI: 227

## COc1cc(NC(C(=O)c2c[nH]c3ccccc23)c2cnc(OC)cn2)cc(OCCO)c1 (stereo not shown) [CPD-292]
  SI: 1043

## COc1cc(NC(C(=O)c2c[nH]c3ccc(F)cc23)c2ccccc2)cc(OCCO)c1 (stereo not shown) [CPD-355]
  SI: 1511

## COc1cccc(NC(C(=O)c2c[nH]c3ccccc23)c2cccc(-c3cncnc3)c2)c1 (stereo not shown) [CPD-054]
  SI: >54

## COc1cccc(NC(C(=O)c2c[nH]c3ccccc23)c2cccc3cnccc23)c1 (stereo not shown) [CPD-047]
  SI: 39

## COc1cc(NC(C(=O)c2c[nH]c3ccccc23)c2cscn2)ccn1 (stereo not shown) [CPD-082]
  SI: 2

## COc1cccc(NC(C(=O)c2nn(C)c3ccccc23)c2cc3ccccn3n2)c1 (stereo not shown) [CPD-273]
  SI: >382

## COc1cccc(NC(C(=O)c2c[nH]c3cc(O)ccc23)c2ccccc2)c1 (stereo not shown) [CPD-134]
  SI: 106

## COc1cccc(NC(C(=O)c2c[nH]c3ccccc23)c2ccc(OC(C)C)nc2)c1 (stereo not shown) [CPD-268]
  SI: 34

## COc1cccc(NC(C(=O)c2cnn3ccccc23)c2ccccc2)c1 (stereo not shown) [CPD-197]
  SI: >42

## COc1cc(NC(C(=O)c2c[nH]c3cc(C#N)ccc23)c2ccccc2)ccn1 (stereo not shown) [CPD-093]
  SI: 5

## COc1cc(NC(C(=O)c2c[nH]c3ccccc23)c2ccc(C)cc2)cc(OCCO)c1 (stereo not shown) [CPD-369]
  SI: 1306

## CCOC(=O)Cn1cc(C(=O)C(Nc2cccc(OC)c2)c2ccccc2)c2ccccc21 (stereo not shown) [CPD-113]
  SI: >232

## CCOc1ccc(C(Nc2cccc(OC)c2)C(=O)c2c[nH]c3ccccc23)cn1 (stereo not shown) [CPD-250]
  SI: 65

## COc1cccc(NC(C(=O)c2c[nH]c3ccccc23)c2cncc(C)c2)c1 (stereo not shown) [CPD-309]
  SI: 138

## COc1cccc(NC(C(=O)c2c[nH]c3ccccc23)c2ccccc2F)c1 (stereo not shown) [CPD-144]
  SI: 320

## CCOC(=O)c1cccc(NC(C(=O)c2c[nH]c3ccccc23)c2ccccc2)c1 (stereo not shown) [CPD-068]
  SI: 9

## COc1cc(NC(C(=O)c2c[nH]c3ccc(Cl)cc23)c2ccccc2)ccn1 (stereo not shown) [CPD-099]
  SI: 7

## CNC(=O)c1cccc(NC(C(=O)c2c[nH]c3ccccc23)c2ccccc2)c1 (stereo not shown) [CPD-170]
  SI: 58

## CNc1ncc(NC(C(=O)c2c[nH]c3ccccc23)c2ccccc2)cc1OC (stereo not shown) [CPD-261]
  SI: 40

## CCOc1ccc(NC(C(=O)c2c[nH]c3ccccc23)c2ccccc2)cc1OC (stereo not shown) [CPD-173]
  SI: 3693

## COc1cc(CO)cc(NC(C(=O)c2c[nH]c3cc(F)ccc23)c2ccccc2)c1 (stereo not shown) [CPD-285]
  SI: 1327

## COc1cc(OC)nc(NC(C(=O)c2c[nH]c3ccccc23)c2ccccc2)n1 (stereo not shown) [CPD-347]
  SI: 6

## COc1cccc(NC(C(=O)c2c[nH]c3ccc(C#N)cc23)c2ccccc2)c1 (stereo not shown) [CPD-126]
  SI: 241

## COc1cccc(NC(C(=O)c2cn(CCN)c3ccccc23)c2ccccc2)c1 (stereo not shown) [CPD-105]
  SI: 11

## COc1cc(CO)cc(NC(C(=O)c2c[nH]c3c(C)cccc23)c2ccccc2)c1 (stereo not shown) [CPD-318]
  SI: 967
